Pooled drug test results. Numbers come from NIAID ChemDB, via PubChem.

Common to all: growth or infection tests; agent: HIV-1

An empty or dashed field is not shown. ECn is the concentration giving n% inhibition of infection, replication or growth. Lines come from different laboratories, so protocols vary.

structure,strain or isolate,read-out,conditions,cells,method,changes,result
O=C1N(Cc2ccc(CO)cc2)[C@H](COc2ccccc2)[C@H](O)[C@@H](O)[C@@H](COc2ccccc2)N1Cc1ccc(CO)cc1,IIIB,EC50,,MT-4,cytopathic effect / XTT,PR-G48V L90M,0.013 µM
CCc1c(Sc2ccccn2)n(COCc2ccccc2)c(=O)[nH]c1=O,IIIB,EC50,,AA5,cytopathic effect / XTT,,0.038 µM
O=S1(=O)NC(Cc2cccc3ccccc23)=CC(=NC2CCN(Cc3ccccc3)CC2)N1,RES056,EC50,,MT-4,MTT,RT-K103N Y181C,31.7 µM
Cc1cn([C@H]2C[C@H](N=[N+]=[N-])[C@@H](CO)O2)c(=O)[nH]c1=O,HXB2D (RT-M184V),EC50,,MT-4,p24,RT-M184V,0.015 µM
Cc1ccnc2c1NC(=O)c1cccnc1N2C1CC1,rA17,EC95,,MT-4,p24,,100 µM
CC(C)=CCN1Cc2cccc3[nH]c(=S)n(c23)C[C@@H]1C,PDBC,EC50,,MT-2,RT activity,,0.25 µM
CC[C@@H](C)[C@H](C(=O)O)N1C[C@H](CN2CCC(c3cc(Cc4ccc(Oc5ccccc5)cc4)nn3CC)CC2)[C@@H](c2cccc(F)c2)C1,BaL,EC50,,HeLa,β-galactosidase,,<0.0037 µM
Cc1cccc(C)c1OCC(=O)N[C@@H](Cc1ccccc1)[C@@H](O)C[C@H](Cc1ccccc1)NC(=O)[C@H](C(C)C)N1CCCNC1=O,HXB2,EC90,,PBMC,p24,PR-L10R M46I L63P V82T I84V,0.33 µM
N#Cc1ccc(CN2CCC(N=C3C=C(Cc4ccc(Cl)cc4Cl)NS(=O)(=O)N3)CC2)cc1,RES056,EC50,,MT-4,MTT,RT-K103N Y181C,>101 µM
CCn1nc(Cc2ccc(C#N)cc2)cc1C1CCN(C[C@H]2CN([C@@H](C(=O)O)C(C)(C)C)C[C@@H]2c2cccc(F)c2)CC1,BaL,EC95,50% human serum,PBMC,p24,,0.0093 µM
Cc1c(C#N)cc(C(F)F)cc1Oc1c(C(F)(F)C(F)F)ncn(Cc2cc(F)c[nH]c2=O)c1=O,,EC50,,,luminescence,,0.0275 µM
CO[C@H]1O[C@@H](n2ccc(=O)[nH]c2=O)C[C@@H]1N=[N+]=[N-],PD165BC(RT-L92I),EC50,,MT-2,RT activity,RT-L92I,0.84 µM
CC(C)CN(C[C@@H](O)[C@H](Cc1ccccc1)NC(=O)O[C@H]1CCOC1)S(=O)(=O)c1ccc(N)cc1,HXB2,EC90,,PBMC,p24,PR-L10R M46I L63P V82T I84V,0.55 µM
Cc1ccnc2c1NC(=O)c1cccnc1N2C1CC1,IIIB,EC50,,U-937,cytopathic effect / XTT,,0.3 µM
CC[C@H](C)[C@H](C(=O)O)N1C[C@H](CN2CCC(c3cc(Cc4cccc(C#N)c4)nn3CC)CC2)[C@@H](c2cccc(F)c2)C1,BaL,EC50,50% human serum,HeLa,β-galactosidase,,<0.011 µM
Fc1cccc(F)c1[C@@H]1SCc2nc3ccccc3n21,IIIB,EC50,,CEM,cytopathic effect / XTT,,5.55 µM
CCn1nc(Cc2ccc(OC(F)F)cc2)cc1C1CCN(C[C@H]2CN([C@@H](C(=O)O)C(C)C)C[C@@H]2c2cccc(F)c2)CC1,BaL,EC90,50% human serum,HeLa,β-galactosidase,,0.1 µM
CCc1c(Sc2ccccn2)n(COCc2ccccc2)c(=O)[nH]c1=O,IIIB,EC50,,CEM + CEM-SS,cytopathic effect / XTT,RT-V90I T139I P225S,0.002 µM
CO[P@](=O)(c1cc(C)cc(/C=C/C#N)c1)c1c(C(N)=O)[nH]c2ccc(Cl)c(F)c12,,EC50,,PBMC,,K103N,0.0007 µM
S=C(NCCc1ccccn1)Nc1ccc(Br)cn1,118(RT-L100I),EC50,,MT-4,cytopathic effect / XTT,RT-L100I,0.8 µM
Cc1ccnc2c1NC(=O)c1cccnc1N2C1CC1,,EC50,,MT-4,,RT-L74V L100I,<0.8 µM
Cc1cn([C@H]2C[C@H](N=[N+]=[N-])[C@@H](CO)O2)c(=O)[nH]c1=O,6 clinical isolates AZT-resistant,EC50,,PBMC,p24,,<1.6 µM
O=C(N[C@H]1c2ccccc2OC[C@H]1O)[C@H](Cc1cccnc1)C[C@H](O)CN1CCN(Cc2ccn(-c3ccccc3Cl)c2)C[C@H]1C(=O)NCC(F)(F)F,K-60C Clinical isolate,EC50,,MT-4,p24,PR-L10I M46I I54V Q58E L63P I64V V77I V82F I84V L90M I93L,<0.062 µM
CCn1nc(Cc2cccnc2)cc1C1CCN(C[C@H]2CN([C@@H](C(=O)O)C3CCCCC3)C[C@@H]2c2cccc(F)c2)CC1,BaL,EC50,50% human serum,HeLa,β-galactosidase,,<0.033 µM
CCCCNc1nc(N)nc2c1ncn2CCOCP(=O)(O)O,IIIB,EC50,,MT-4,cytopathic effect / MTT,,2.15 µg/mL
Fc1cccc(F)c1C1SCc2nc3ccccc3n21,IIIB,EC50,,CEM,cytopathic effect / XTT,RT-Y188C,4.16 µM
CCC[C@@]1(CCc2ccccc2)CC(O)=C([C@H](CC)c2cccc(NS(=O)(=O)c3ccc(C(F)(F)F)cn3)c2)C(=O)O1,458 clinical isolates delavirdine-resistant,EC50,,PBMC,p24,,<0.04 µM
c1cc(CN2CCCNCCNCCCNCC2)ccc1CN1CCCNCCNCCCNCC1,T20R/C34R (subtype B),EC50,,MT-4,MTT,,0.001 µg/mL
Nc1nc(Nc2cccc3ccccc23)c2ncn(CCOCP(=O)(O)O)c2n1,IIIB,EC50,,MT-4,cytopathic effect / MTT,,90 µg/mL
Cc1cn([C@H]2C[C@H](N=[N+]=[N-])[C@@H](CO)O2)c(=O)[nH]c1=O,NL4-3,EC50,,CEM + CEM-SS,cytopathic effect / XTT,RT-Y181C,0.01 µM
Cc1ccnc2c1NC(=O)c1cccnc1N2C1CC1,92UG021 (subtype D),EC50,,MT-4,MTT,,0.08 µg/mL
CC(C)=CCN1Cc2cccc3[nH]c(=S)n(c23)C[C@@H]1C,IIIB,EC50,,AA5,cytopathic effect / XTT,,0.1 µM
O=c1[nH]cnc2c1ncn2[C@H]1CC[C@@H](CO)O1,A17,EC95,,MT-4,p24,,6.25 µM
CC[C@H](C)[C@H](C(=O)O)N1C[C@H](CN2CCC(c3cc(Cc4cccc(CN)c4)nn3CC)CC2)[C@@H](c2cccc(F)c2)C1,BaL,EC50,,HeLa,β-galactosidase,,<0.0012 µM
Fc1cccc(F)c1[C@H]1SCc2nc3ccccc3n21,IIIB,EC50,,CEM,cytopathic effect / XTT,RT-L100I,3.12 µM
Nc1nc(NC2CCCC2)c2ncn(CCOCP(=O)(O)O)c2n1,IIIB,EC50,,CEM,cytopathic effect / MTT,,2 µg/mL
CC(=O)N1CCC(C(=O)N(CCCN2CCC(Cc3ccc(C(N)=O)cc3)CC2)c2ccc(C)c(Cl)c2)CC1,R5 subtype E_2 recombinant,EC50,,U87 (CD4+ CCR5+) + U87,luciferase,,0.023 µM
O=S1(=O)NC(Cc2cccc3ccccc23)=CC(=NC2CCN(Cc3ccc(Br)cc3)CC2)N1,IIIB,EC50,,MT-4,MTT,,25.58 µM
O=C(N[C@H]1c2ccccc2OC[C@H]1O)[C@H](Cc1cccnc1)C[C@H](O)CN1CCN(Cc2ccn(-c3ccc(F)c(F)c3F)c2)C[C@H]1C(=O)NCC(F)(F)F,K-60C Clinical isolate,EC50,,MT-4,p24,PR-L10I M46I I54V Q58E L63P I64V V77I V82F I84V L90M I93L,<0.015 µM
Cc1cn([C@H]2C[C@H](N=[N+]=[N-])[C@@H](CO)O2)c(=O)[nH]c1=O,126 WT,EC50,,MT-4,p24,,0.08 µM
CCn1nc(Cc2ccc(OCC(F)(F)F)cc2)cc1C1CCN(C[C@H]2CN([C@@H](C(=O)O)C(C)(C)C)C[C@@H]2c2cccc(F)c2)CC1,BaL,EC50,,HeLa,β-galactosidase,,<0.0012 µM
Cc1csc(NC(=S)NCCc2c(F)cccc2F)n1,IIIB,EC50,,MT-4,cytopathic effect,,0.025 µM
CC[C@@H](C)[C@H](C(=O)O)N1C[C@H](CN2CCC(c3cc(Cc4cccc(CN)c4)nn3CC)CC2)[C@@H](c2cccc(F)c2)C1,BaL,EC90,50% human serum,HeLa,β-galactosidase,,0.033 µM
CCCN(C)c1nc(N)nc2c1[nH]c[n+]2C[C@@H](C)OCP(=O)(O)O,IIIB,EC50,,CEM,cytopathic effect / MTT,,5.5 ± 2.1 µg/mL
COc1ccc(OC)c(CCNC(=S)Nc2nccs2)c1,IIIB,EC50,,MT-4,cytopathic effect,,0.28 µM
Cc1cccc(-n2ccc(CN3CCN(C[C@@H](O)C[C@@H](Cc4cccnc4)C(=O)N[C@H]4c5ccccc5OC[C@H]4O)[C@H](C(=O)NCC(F)(F)F)C3)c2)c1,NL4-3 WT,EC95,,MT-4,p24,,≤0.008 µM
COc1ccc(CN2CCC(N=C3C=C(Cc4cccc5ccccc45)NS(=O)(=O)N3)CC2)cc1,IIIB,EC50,,MT-4,MTT,,>119 µM
CCn1nc(Cc2cccc(OC)c2)cc1C1CCN(C[C@H]2CN([C@@H](C(=O)O)C(C)(C)C)C[C@@H]2c2cccc(F)c2)CC1,BaL,EC90,,HeLa,β-galactosidase,,<0.00014 µM
CCCc1cc(=O)oc2c3c(c4c(c12)OC(C)(C)C=C4)O[C@H](C)[C@@H](C)[C@@H]3O,IIIB,EC50,,PBMC,cytopathic effect / XTT,,0.22 µM
O=C(N[C@H]1c2ccccc2OC[C@H]1O)[C@H](Cc1cccnc1)C[C@H](O)CN1CCN(Cc2ccn(-c3ccc(Cl)c(Cl)c3)c2)C[C@H]1C(=O)NCC(F)(F)F,K-60C Clinical isolate,EC50,,MT-4,p24,PR-L10I M46I I54V Q58E L63P I64V V77I V82F I84V L90M I93L,<0.031 µM
Cc1cn([C@H]2C[C@H](N=[N+]=[N-])[C@@H](CO)O2)c(=O)[nH]c1=O,IIIB,EC50,,U-937,cytopathic effect / XTT,,0.0026 µM
Cc1cn([C@H]2C[C@H](N=[N+]=[N-])[C@@H](CO)O2)c(=O)[nH]c1=O,RES056,EC50,,MT-4,MTT,RT-K103N Y181C,0.01 µM
CC(C)=CCN1Cc2cccc3[nH]c(=S)n(c23)C[C@@H]1C,IIIB,EC50,,CEM + CEM-SS,cytopathic effect / XTT,RT-Y181C,4.3 µM
CCc1cc(NCc2nc3ccccc3o2)c(=O)[nH]c1C,rA17,EC95,,MT-4,p24,,200 µM
Cc1cn([C@H]2C[C@H](N=[N+]=[N-])[C@@H](CO)O2)c(=O)[nH]c1=O,118(RT-L100I),EC50,,MT-4,cytopathic effect / XTT,RT-L100I,0.005 µM

Repeating the final 7 entries:

{"structure": "CCCc1cc(=O)oc2c3c(c4c(c12)OC(C)(C)C=C4)O[C@H](C)[C@@H](C)[C@@H]3O", "strain or isolate": "IIIB", "read-out": "EC50", "cells": "PBMC", "method": "cytopathic effect / XTT", "result": "0.22 µM"}
{"structure": "O=C(N[C@H]1c2ccccc2OC[C@H]1O)[C@H](Cc1cccnc1)C[C@H](O)CN1CCN(Cc2ccn(-c3ccc(Cl)c(Cl)c3)c2)C[C@H]1C(=O)NCC(F)(F)F", "strain or isolate": "K-60C Clinical isolate", "read-out": "EC50", "cells": "MT-4", "method": "p24", "changes": "PR-L10I M46I I54V Q58E L63P I64V V77I V82F I84V L90M I93L", "result": "<0.031 µM"}
{"structure": "Cc1cn([C@H]2C[C@H](N=[N+]=[N-])[C@@H](CO)O2)c(=O)[nH]c1=O", "strain or isolate": "IIIB", "read-out": "EC50", "cells": "U-937", "method": "cytopathic effect / XTT", "result": "0.0026 µM"}
{"structure": "Cc1cn([C@H]2C[C@H](N=[N+]=[N-])[C@@H](CO)O2)c(=O)[nH]c1=O", "strain or isolate": "RES056", "read-out": "EC50", "cells": "MT-4", "method": "MTT", "changes": "RT-K103N Y181C", "result": "0.01 µM"}
{"structure": "CC(C)=CCN1Cc2cccc3[nH]c(=S)n(c23)C[C@@H]1C", "strain or isolate": "IIIB", "read-out": "EC50", "cells": "CEM + CEM-SS", "method": "cytopathic effect / XTT", "changes": "RT-Y181C", "result": "4.3 µM"}
{"structure": "CCc1cc(NCc2nc3ccccc3o2)c(=O)[nH]c1C", "strain or isolate": "rA17", "read-out": "EC95", "cells": "MT-4", "method": "p24", "result": "200 µM"}
{"structure": "Cc1cn([C@H]2C[C@H](N=[N+]=[N-])[C@@H](CO)O2)c(=O)[nH]c1=O", "strain or isolate": "118(RT-L100I)", "read-out": "EC50", "cells": "MT-4", "method": "cytopathic effect / XTT", "changes": "RT-L100I", "result": "0.005 µM"}